PubChem BioAssay AID504761 | Drosophila RNAi Screening Center – 2011
The screen tested about 22,000 reagents; below is an unselected part of those that have a named target and a result. In the full data, 116 (0.52%) are marked active. 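Calls depend on retest data that are not deposited; infection was ranked per plate without normalising between plates; the unit of the infection score is not given.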 The raw values are shown without normalisation. Entries without a mark were called inactive. Not stated in the record: the amount of reagent, the time to read-out.

Purpose: 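Genome-wide fly cell screen for genes dengue virus requires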 (primary screen)
System: D.Mel-2 cells from Drosophila
Reagents: long dsRNA against Drosophila genes
Conditions: infection with dengue virus type 2; dose and infection time not stated
Read-out: 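Cells stained for dengue envelope protein and imaged; percent of infected cells per well on duplicate plates, ranked by infection, with stained nuclei counted for cell number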
Scale: infection score: higher = more virus-infected cells; cell count: higher = more cells in the well
Call rule: 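Low infection ranks in the two replicates (chance level up to 0.065) followed by a retest with a 1.5-fold or larger significant decrease, p below 0.05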
Meaning of the calls: active = confirmed: knock-down lowers infection; inactive = not picked or not confirmed

After knock-down of CG7509 (GeneID 38579) [DRSC08596] the results were infection score, replicate 1 = 7.97; infection score, replicate 2 = 8.49; cell count, replicate 1 = 6773; cell count, replicate 2 = 6728.
After knock-down of CG12853 (GeneID 50220) [DRSC06193], the screen gave infection score, replicate 1 = 1.67; infection score, replicate 2 = 4.84; cell count, replicate 1 = 6402; cell count, replicate 2 = 6494.
With knock-down of CG12853 (GeneID 50220) [DRSC27193], the screen gave infection score, replicate 1 = 17.5; infection score, replicate 2 = 31.9; cell count, replicate 1 = 6171; cell count, replicate 2 = 6123.
Dolk (GeneID 36856) [DRSC07143] scored infection score, replicate 1 = 13.3; infection score, replicate 2 = 4.55; cell count, replicate 1 = 6165; cell count, replicate 2 = 6622.
After knock-down of CG17919 (GeneID 40780) [DRSC12571], the record shows infection score, replicate 2 = 12.8; cell count, replicate 1 = 404; cell count, replicate 2 = 5900.
Depletion of CG17919 (GeneID 40780) [DRSC27860] came out at: infection score, replicate 1 = 16.1; infection score, replicate 2 = 22.9; cell count, replicate 1 = 6263; cell count, replicate 2 = 5891.
After knock-down of fs(1)Yb (GeneID 31262) [DRSC18777] the results were infection score, replicate 1 = 14.1; infection score, replicate 2 = 3.01; cell count, replicate 1 = 3695; cell count, replicate 2 = 6179.
Depletion of Gr93b (GeneID 117472) [DRSC22063] gave: infection score, replicate 1 = 2.36; infection score, replicate 2 = 9.73; cell count, replicate 1 = 6345; cell count, replicate 2 = 5984.
For Or56a (GeneID 37269) [DRSC07495] the deposit lists infection score, replicate 1 = 2.48; infection score, replicate 2 = 2.29; cell count, replicate 1 = 5965; cell count, replicate 2 = 5908.
Arl5 (GeneID 38931) [DRSC10785] gave infection score, replicate 1 = 15.1; infection score, replicate 2 = 18.9; cell count, replicate 1 = 5885; cell count, replicate 2 = 5842.
For Arl5 (GeneID 38931) [DRSC25831], the values are infection score, replicate 1 = 2.33; infection score, replicate 2 = 2.6; cell count, replicate 1 = 6211; cell count, replicate 2 = 6160.
Depletion of CG8173 (GeneID 32753) [DRSC20088] came out at: infection score, replicate 1 = 1.86; infection score, replicate 2 = 13.5; cell count, replicate 1 = 6819; cell count, replicate 2 = 5814.
Against brat (GeneID 35197) [DRSC03497], the values are infection score, replicate 1 = 9.32; infection score, replicate 2 = 6.39; cell count, replicate 1 = 5978; cell count, replicate 2 = 5851.
CG13674 (GeneID 38921) [DRSC10033] gave infection score, replicate 1 = 1.04; infection score, replicate 2 = 1.63; cell count, replicate 1 = 5876; cell count, replicate 2 = 6364.
Against CG13674 (GeneID 38921) [DRSC27828], the entry reads infection score, replicate 1 = 36.3; infection score, replicate 2 = 9.42; cell count, replicate 1 = 6013; cell count, replicate 2 = 6390.
